Anti-infective test results gathered from many reports (values: NIAID ChemDB through PubChem).

Percent inhibition refers to the dose given; in toxicity tests it is the harm to the cells.

compound,target,read-out,method,strain,tested at,species,kind,value
Cc1cc(Cl)ccc1SCC(=O)O,-,MIC,-,H37Rv,-,Mycobacterium tuberculosis,culture,>100 µg/mL
Fc1ccc(N2CCCCC2)c(NC(=S)c2ccncc2)c1,CK1gamma1,inhibition,kinase activity,-,10 µM,-,host protein,1%
Cc1cc(O)cc2c1C(=O)CCO2,-,MIC,-,H37Rv,-,Mycobacterium tuberculosis,culture,>100 µg/mL
N=C1OC(C(Cl)(Cl)Cl)N(c2cccc(F)c2)C1=O,-,inhibition,BACTEC,H37Rv,12.8 µg/mL,Mycobacterium tuberculosis,culture,6%
Fc1ccc(-c2cncc(N3CCN(c4ccc(C(F)(F)F)cc4)CC3)n2)cc1,UL97 kinase,inhibition,-,-,10 µM,Cytomegalovirus,target,>15%
CS/C(=N\S(=O)(=O)c1ccccc1)NNC(=O)c1c(-c2c(Cl)cccc2Cl)noc1C,-,inhibition,BACTEC,H37Rv,12.5 µg/mL,Mycobacterium tuberculosis,culture,17%
O=C(O)CN(CC(=O)O)c1ccccc1C(=O)O,-,MIC,-,H37Rv,-,Mycobacterium tuberculosis,culture,50 µg/mL
NC(=O)c1ccc(-c2cncc(N3CCN(c4cccc(Cl)c4)CC3)n2)cc1,UL97 kinase,inhibition,-,-,1 µM,Cytomegalovirus,target,<50%
Cc1ccc(C(=O)c2ccccc2C(=O)O)cc1[N+](=O)[O-],-,MIC,-,H37Rv,-,Mycobacterium tuberculosis,culture,>100 µg/mL
CCOC(=O)c1cc(C)nnc1C(=O)OCC,-,inhibition,BACTEC,H37Rv,12.5 µg/mL,Mycobacterium tuberculosis,culture,0%
CC(=O)c1cccc(-c2cncc(N3CCN(c4cccc(C(F)(F)F)c4)CC3)n2)c1,UL97 kinase,inhibition,-,-,10 µM,Cytomegalovirus,target,>15%
CC(O)C1(O)C(O)CC(OC2c3cc4c(c(O)c3[C@@H]3C[C@@]2(C)OC32C=c3cc[nH]c3=N2)C(=O)c2cccc(O)c2C4=O)OC1C,-,MIC,-,RMP-R,-,Mycobacterium tuberculosis,culture,0.8 µg/mL
Cc1ccc(N2CCN(c3cncc(-c4csc5ccccc45)n3)CC2)cc1,UL97 kinase,inhibition,-,-,10 µM,Cytomegalovirus,target,>15%
CC1=C(O)C(=O)C=C2C1=CC=C1[C@@]2(C)CC[C@@]2(C)[C@@H]3C[C@](C)(C(=O)O)CC[C@]3(C)CC[C@]12C,-,inhibition,BACTEC,H37Rv,12.8 µg/mL,Mycobacterium tuberculosis,culture,44%
Cc1c(O)cc(O)cc1O,-,MIC,-,H37Rv,-,Mycobacterium tuberculosis,culture,>100 µg/mL
CCOC(=O)c1c(N)ssc1=S,-,MIC bound,BACTEC,H37Rv,-,Mycobacterium tuberculosis,culture,>12.5 µg/mL
Cc1ccc(-c2cncc(N3CCN(c4cccc(C(F)(F)F)c4)CC3)n2)cc1,UL97 kinase,inhibition,-,-,10 µM,Cytomegalovirus,target,>15%
O=C(O)CCc1ccc(-c2ccccc2)n1-c1ccccc1,-,MIC,-,H37Rv,-,Mycobacterium tuberculosis,culture,50 µg/mL
Fc1cccc(-c2cncc(N3CCN(c4ccc(F)cc4F)CC3)n2)c1,UL97 kinase,IC50,-,-,-,Cytomegalovirus,target,<100 µM
O=C(NCOC(c1ccccc1)c1ccccc1)c1cccnc1,-,MIC bound,BACTEC,H37Rv,-,Mycobacterium tuberculosis,culture,>12.5 µg/mL
COc1cc(NCCCO)c2ncccc2c1.Cl,-,MIC,-,H37Rv,-,Mycobacterium tuberculosis,culture,>100 µg/mL

A second listing of 2 rows from above:

{"compound": "O=C(O)CCc1ccc(-c2ccccc2)n1-c1ccccc1", "read-out": "MIC", "strain": "H37Rv", "species": "Mycobacterium tuberculosis", "kind": "culture", "value": "50 µg/mL"}
{"compound": "Cc1c(O)cc(O)cc1O", "read-out": "MIC", "strain": "H37Rv", "species": "Mycobacterium tuberculosis", "kind": "culture", "value": ">100 µg/mL"}

Neighbouring rows are from separate reports. MIC bound comes from a single tested concentration. An empty or dashed field is not shown. ICn is the concentration giving n% inhibition.